According to patent US9750814B2, “Polypeptides to inhibit epstein barr viral protein BHRF1 and B cell lymphoma family proteins” (priority 2014, dated 2017):

B1: Index 21: SEQ ID NO: 113; computational precursor for BbpD04 (protein)
chain: GFDWKKVLDKAKDLAENDVREAKQKLEEFYKKAMKLDLTQEMRRKLMLEWIAAMLMAIGDIFNAIEQGKQEADKLKKLGKVLSQLLDELKRRLEELKEEAALKAHDFGREFELKLLFG
modifications: optionally absent
FACS sort for cells expressing surface protein
  Log2 Enrichment Ratio: Expression: 0.49
FACS sort for the 2% of cells with highest expression
  Log2 Enrichment Ratio: High Expression: −1.20
